A mixed list of measured activities; the numbers were collected in NIAID ChemDB.

Shared fields: tests in culture; agent: Rhinovirus; read-out: inhibition

Percent inhibition refers to the dose given; in toxicity tests it is the harm to the cells. a–b is a range or a potency band. An empty or dashed field is not shown. Rows are shuffled and stem from different studies.

structure | strain | tested at | cells | read by | result
O=C(O)Cc1csc(/N=C2\SC[C@@H]3Cc4ccccc4CN23)n1 | Serotype 3 | 3 µg/mL | MRC-5 | cytopathic effect | 80–100%
CCOC(=O)c1csc(N2CCN(Cc3cc(C)ccc3C)CC2)n1 | 17 serotypes | 5.8 µg/mL | - | - | 71%
N#Cc1cc([N+](=O)[O-])ccc1Oc1ccc(Cl)c(Cl)c1 | HANK | 1 µg/mL | VERO | plaque count | 100%
FC(F)(F)c1cccc(C2CCN(c3ccc(Br)nn3)C2)c1 | 17 serotypes | 32 µg/mL | - | - | 71%
O=S(=O)([O-])c1ccc(O)cc1 | - | 10 µg/mL | Human embryonic lung cells | cytopathic effect | 0%
Cc1cc(Cl)ccc1Cn1cnc2c(N(C)C)nc(C(F)(F)F)nc21 | Serotype 29 | 8 µM | M-HELA | plaque count | 32%
FC(F)(F)c1cccc(C2CCN(c3ccc(Cl)nn3)C2)c1 | 17 serotypes | 0.005 µg/mL | - | - | 18%
NCCS(=O)(=O)O | - | 5 µg/mL | Human embryonic lung cells | cytopathic effect | 15%
COc1ccc(N2CCN(c3cccc(C)c3)CC2)nn1 | 17 serotypes | 0.047 µg/mL | - | - | 18%
CN(C)c1nc(C(F)(F)F)nc2c1ncn2Cc1ccc([N+](=O)[O-])cc1 | Serotype 1A | 4 µM | M-HELA | plaque count | 38%
O=S(=O)(O)c1ccc2ccc(S(=O)(=O)O)cc2c1 | - | 5 µg/mL | Human amnion AV3 cells | cytopathic effect | 10%
CC(C)Oc1ccc(Cn2cnc3c(N(C)C)nc(C(F)(F)F)nc32)cc1 | Serotype 19 | 8 µM | M-HELA | plaque count | 33%
O=C(Nc1ccc2cc(S(=O)(=O)[O-])cc(S(=O)(=O)[O-])c2c1)c1ccccc1 | - | 5 µg/mL | Human amnion AV3 cells | cytopathic effect | 0%
CN(C)c1nc(C(F)(F)F)nc2c1ncn2Cc1ccccc1Cl | Serotype 19 | 8 µM | M-HELA | plaque count | 27%
CCOc1cc(O)c(C(=O)/C=C/c2ccc(OC)cc2)c(OC)c1 | 100 serotypes | 0.4 µg/mL | - | - | 71%
CN(C)c1nc(C(F)(F)F)nc2c1ncn2Cc1ccc(Cl)cc1Cl | Serotype 4 | 8 µM | M-HELA | plaque count | 25%
Nc1cc(S(=O)(=O)[O-])cc2cc(S(=O)(=O)[O-])ccc12 | - | 50 µg/mL | Human amnion AV3 cells | cytopathic effect | 10%
Cc1ccc(N2CCC(c3cccc(C(F)(F)F)c3)C2)nn1 | 17 serotypes | 2.75 µg/mL | - | - | 71%

For reference, 2 entries again:

structure,strain,tested at,cells,read by,result
CN(C)c1nc(C(F)(F)F)nc2c1ncn2Cc1ccc([N+](=O)[O-])cc1,Serotype 1A,4 µM,M-HELA,plaque count,38%
COc1ccc(N2CCN(c3cccc(C)c3)CC2)nn1,17 serotypes,0.047 µg/mL,-,-,18%